Starred links: 1 amine or outer side, 2 acyl side, 3 side chain; linkers in the order of their positions; H or OH if unused. Non-standard residues stand in square brackets, D forms with d. Groups on a side chain read outwards from the residue. *: point of attachment. C18 diacid = O=C(O)CCCCCCCCCCCCCCCCC(=O)*; γGlu = O=C(O)[C@H](CCC(=O)[*:2])N[*:1]; NMeY = CN[C@@H](Cc1ccc(O)cc1)C(=O)O; AEEA = NCCOCCOCC(=O)O; Aib = CC(C)(N)C(=O)O
Assay: general procedure: Fmoc solid-phase peptide synthesis; Rink Amine MBHA resin; 2-CTC Resin; HBTU/DIEA
Conditions: whole synthesis, HOAC

Substance | final HPLC purity [% purity] | isolated yield [% yield]
H-[NMeY][Aib]EGTFISDYSIALDR[Aib]K([AEEA-AEEA-γGlu-γGlu-C18 diacid])Q[Aib]NFVNWLLAQSPSSGAPPPS-NH2 (SMILES CC[C@H](C)[C@H](NC(=O)[C@H](CO)NC(=O)[C@H](Cc1ccc(O)cc1)NC(=O)[C@H](CC(=O)O)NC(=O)[C@H](CO)NC(=O)[C@@H](NC(=O)[C@H](Cc1ccccc1)NC(=O)[C@@H](NC(=O)CNC(=O)[C@H](CCC(=O)O)NC(=O)C(C)(C)NC(=O)[C@H](Cc1ccc(O)cc1)NC)[C@@H](C)O)[C@@H](C)CC)C(=O)N[C@@H](C)C(=O)N[C@@H](CC(C)C)C(=O)N[C@@H](CC(=O)O)C(=O)N[C@@H](CCCNC(=N)N)C(=O)NC(C)(C)C(=O)N[C@@H](CCCCNC(=O)COCCOCCNC(=O)COCCOCCNC(=O)CC[C@H](NC(=O)CC[C@H](NC(=O)CCCCCCCCCCCCCCCCC(=O)O)C(=O)O)C(=O)O)C(=O)N[C@@H](CCC(N)=O)C(=O)NC(C)(C)C(=O)N[C@@H](CC(N)=O)C(=O)N[C@@H](Cc1ccccc1)C(=O)N[C@H](C(=O)N[C@@H](CC(N)=O)C(=O)N[C@@H](Cc1c[nH]c2ccccc12)C(=O)N[C@@H](CC(C)C)C(=O)N[C@@H](CC(C)C)C(=O)N[C@@H](C)C(=O)N[C@@H](CCC(N)=O)C(=O)N[C@@H](CO)C(=O)N1CCC[C@H]1C(=O)N[C@@H](CO)C(=O)N[C@@H](CO)C(=O)NCC(=O)N[C@@H](C)C(=O)N1CCC[C@H]1C(=O)N1CCC[C@H]1C(=O)N1CCC[C@H]1C(=O)N[C@@H](CO)C(N)=O)C(C)C) | 95.73 | 
H-[NMeY][Aib]EGTFISDYSI[Aib]LDR[Aib]AQ[Aib]NFVNWLLAQK([AEEA-AEEA-γGlu-γGlu-C18 diacid])PSSGAPPPS-NH2 (SMILES CC[C@H](C)[C@H](NC(=O)[C@H](Cc1ccccc1)NC(=O)[C@@H](NC(=O)CNC(=O)[C@H](CCC(=O)O)NC(=O)C(C)(C)NC(=O)[C@H](Cc1ccc(O)cc1)NC)[C@@H](C)O)C(=O)N[C@@H](CO)C(=O)N[C@@H](CC(=O)O)C(=O)N[C@@H](Cc1ccc(O)cc1)C(=O)N[C@@H](CO)C(=O)N[C@H](C(=O)NC(C)(C)C(=O)N[C@@H](CC(C)C)C(=O)N[C@@H](CC(=O)O)C(=O)N[C@@H](CCCNC(=N)N)C(=O)NC(C)(C)C(=O)N[C@@H](C)C(=O)N[C@@H](CCC(N)=O)C(=O)NC(C)(C)C(=O)N[C@@H](CC(N)=O)C(=O)N[C@@H](Cc1ccccc1)C(=O)N[C@H](C(=O)N[C@@H](CC(N)=O)C(=O)N[C@@H](Cc1c[nH]c2ccccc12)C(=O)N[C@@H](CC(C)C)C(=O)N[C@@H](CC(C)C)C(=O)N[C@@H](C)C(=O)N[C@@H](CCC(N)=O)C(=O)N[C@@H](CCCCNC(=O)COCCOCCNC(=O)COCCOCCNC(=O)CC[C@H](NC(=O)CC[C@H](NC(=O)CCCCCCCCCCCCCCCCC(=O)O)C(=O)O)C(=O)O)C(=O)N1CCC[C@H]1C(=O)N[C@@H](CO)C(=O)N[C@@H](CO)C(=O)NCC(=O)N[C@@H](C)C(=O)N1CCC[C@H]1C(=O)N1CCC[C@H]1C(=O)N1CCC[C@H]1C(=O)N[C@@H](CO)C(N)=O)C(C)C)[C@@H](C)CC) | 97.25 | 
H-[NMeY][Aib]EGTFISDYSIALDR[Aib]AQ[Aib]K([AEEA-AEEA-γGlu-γGlu-C18 diacid])FVNWLLAQKG-OH | 96.8 | 
Me-Y-Aib-E-G-T-F-I-S-D-Y-S-I-A-L-D-R-Km-A-Q-Aib-D-F-V-N W-L-L-A-Q-S-P-S-S-G-A-P-P-P-S-NH2 | 98.60 | 
H-[NMeY][Aib]EGTFISDYSI[Aib]LDR[Aib]AQ[Aib]K([AEEA-AEEA-γGlu-γGlu-C18 diacid])FVNWLLAQRG-OH (SMILES CC[C@H](C)[C@H](NC(=O)[C@H](Cc1ccccc1)NC(=O)[C@@H](NC(=O)CNC(=O)[C@H](CCC(=O)O)NC(=O)C(C)(C)NC(=O)[C@H](Cc1ccc(O)cc1)NC)[C@@H](C)O)C(=O)N[C@@H](CO)C(=O)N[C@@H](CC(=O)O)C(=O)N[C@@H](Cc1ccc(O)cc1)C(=O)N[C@@H](CO)C(=O)N[C@H](C(=O)NC(C)(C)C(=O)N[C@@H](CC(C)C)C(=O)N[C@@H](CC(=O)O)C(=O)N[C@@H](CCCNC(=N)N)C(=O)NC(C)(C)C(=O)N[C@@H](C)C(=O)N[C@@H](CCC(N)=O)C(=O)NC(C)(C)C(=O)N[C@@H](CCCCNC(=O)COCCOCCNC(=O)COCCOCCNC(=O)CC[C@H](NC(=O)CC[C@H](NC(=O)CCCCCCCCCCCCCCCCC(=O)O)C(=O)O)C(=O)O)C(=O)N[C@@H](Cc1ccccc1)C(=O)N[C@H](C(=O)N[C@@H](CC(N)=O)C(=O)N[C@@H](Cc1c[nH]c2ccccc12)C(=O)N[C@@H](CC(C)C)C(=O)N[C@@H](CC(C)C)C(=O)N[C@@H](C)C(=O)N[C@@H](CCC(N)=O)C(=O)N[C@@H](CCCNC(=N)N)C(=O)NCC(=O)O)C(C)C)[C@@H](C)CC) | 96.79 | 9.87

From patent US20230143604A1 (TAKEDA PHARMACEUTICAL COMPANY LIMITED, priority 2020, published 2023)
